A mixed list of measured activities; the numbers were collected in NIAID ChemDB.

All rows: growth or infection tests; organism: Human cytomegalovirus; read by: plaque count; endpoint: EC50

ECn: concentration that inhibits the pathogen or its effect by n%. Neighbouring rows are from separate reports. An empty or dashed field is not shown.

structure | cells | strain or isolate | value
O=C(NCc1ccc(Cl)cc1)c1c[nH]c2ccc(C#CCO)cc2c1=O |  | GRU | 0.8 µM
Cn1cc(C(=O)NCc2ccc(Cl)cc2)c(=O)c2cc(CN3CCOCC3)ccc21 | HFF | DAVIS | 0.5 µM
CC(=O)OC[C@H]1O[C@@H](c2ccccc2)C[C@@H]1OC(C)=O | HEL | AD169 | >100 µg/mL
Nc1ncnc2c1ncn2C=C1CC1CO | HFF | RCdelta97 | 27.6 µM
CCCCCCCC/C=C\CCCCCCCOCCCOP(=O)(O)CO[C@H](CO)Cn1ccc(N)nc1=O | HFF | Coffman | 0.005 µM
C[C@H]1O[C@@H](n2c(Cl)nc3cc(Cl)c(Cl)cc32)[C@H](O)C1O | HFF | TOWNE | 0.58 µM
COc1ccccc1CNC(=O)C1=Cc2ccncc2CC1 | MRC-5 | C8805-37 | 27.1 µM
Nc1nc2c(ncn2[C@@H]2C[C@H](CO)[C@H]2CO)c(=O)[nH]1 | MRC-5 | PAAR | 7.44 µM
OC[C@@H]1O[C@@H](n2c(Cl)nc3cc(Cl)c(Cl)cc32)[C@H](O)[C@@H]1O | HFF | C4 (BDCRB- maribavir-resistant) | 56 µM
Nc1nc2c(ncn2COC(CO)CO)c(=O)[nH]1 | HFF | 759RD100 (drug-resistant) | 113 µM
OC[C@H]1O[C@@H](n2c(Br)nc3cc(Cl)c(Cl)cc32)[C@H](O)[C@@H]1O | HFF | R56 (BDCRB-resistant) | 17 µM
O=C(NCc1ccc(Cl)cc1)c1cn2c3c(cc(CN4CCOCC4)cc3c1=O)OC(c1cccnc1)C2 | HFF | EC | 5.8 µM
CCCCCCCC/C=C\CCCCCCCCOCCOP(=O)(O)CO[C@H](CO)Cn1ccc(N)nc1=O | HFF | GDGrP53 | 0.05 µM
CNc1cccc2c(S(=O)(=O)Nc3ccc(NC(=O)C(C)(C)CF)cc3)cccc12 |  | WILD TYPE | 0.14 µM
COc1cccc(N2CCN(C3=Nc4c(F)cccc4[C@H](CC(=O)O)N3c3cc(C(F)(F)F)ccc3OC)CC2)c1 |  | Clinical isolate 14 | 0.0014 µM
O=c1[nH]c(=S)n([C@@H]2O[C@H](CO)[C@@H](O)[C@@H]2O)cc1/C=C/Br | MRC-5 | AD169 | >213 µM
OC[C@H]1O[C@@H](n2c(Br)nc3cc(Cl)c(Cl)cc32)[C@H](O)[C@@H]1O | HFF | Isolate B11 mutation D344E | 12 µM
CCCCCCCCCCCCOCCCOP(=O)(O)CO[C@H](CO)Cn1ccc(N)nc1=O | HFF | Coffman | 0.08 µM
OC[C@H]1O[C@@H](n2c(Br)nc3cc(Cl)c(Cl)cc32)[C@H](O)[C@@H]1O | HFF | R56 (BDCRB- maribavir-resistant) | 8.8 µM
CO[C@H]1[C@H]2O[Si](C(C)C)(C(C)C)O[Si](C(C)C)(C(C)C)OC[C@@H]2O[C@@H]1c1ccccc1 | HEL | AD169 | 1.3 µg/mL
CCCCCCCCCCCCCCCCCCOC[C@H](COP(=O)(O)CO[C@H](CO)Cn1ccc(N)nc1=O)OCc1ccccc1 | HFF | VR4760 (foscarnet-resistant) | 0.001 µM
Nc1nc2c(ncn2/C=C2/CC2(CO)CO)c(=O)[nH]1 | HFF | C9209 1-4-4 ganciclovir- and foscarnet-resistant | 1.5 µM
O[C@@H]1[C@H](O)CO[C@H]1n1c(Cl)nc2cc(Cl)c(Cl)cc21 | HFF | R56 (BDCRB- maribavir-resistant) | 5.3 µM
CC/C=C\Cn1c(=O)sc2c(=O)[nH]c(N)nc21 |  | D16 (DHPG-R) | <0.4 µM
O[C@@H]1[C@H](O)[C@H](O)CO[C@H]1n1c(Br)nc2cc(Cl)c(Cl)cc21 | HFF | RCMP97 (drug-resistant) | 2.3 µM
Nc1ccn(C[C@@H](CO)OCP(=O)(O)O)c(=O)n1.O=C(O)P(=O)(O)O | MRC-5 | PC92 (ganciclovir- foscarnet-susceptible) | 0.96 µM
Cn1cc(C(=O)NCc2ccc(Cl)cc2)c(=O)c2cc(CN3CCOCC3)ccc21 | HFF | C8805/37-1-1 (ganciclovir-resistant) | 3 µM
OC[C@H]1O[C@@H](c2ccccc2)C[C@@H]1O | HEL | AD169 | >100 µg/mL
CC(C)Nc1nc2cc(Cl)c(Cl)cc2n1[C@H]1O[C@@H](CO)[C@H](O)[C@@H]1O | MRC-5 | C8303 | 0.54 µM
O=c1[nH]c(=S)n([C@@H]2O[C@H](CO)[C@@H](O)[C@@H]2O)cc1/C=C/c1ccccc1 | MRC-5 | 93-1R | >213 µM
CCOP(=O)(O)CCC(CO)OCn1cnc2c(=O)[nH]c(N)nc21 | MRC-5 | C8708 (ganciclovir-susceptible) | 34 µg/mL
O=C(O)/C=C/c1cn([C@@H]2O[C@H](CO)[C@@H](O)[C@@H]2O)c(=S)[nH]c1=O | MRC-5 | AD169 | >213 µM
CC(C)Oc1ccccc1CNC(=O)c1ccc2cnccc2n1 | HFF | TOWNE | 0.06 µM
OC[C@H]1O[C@@H](n2c(Br)nc3cc(Cl)c(Cl)cc32)[C@H](O)[C@@H]1O | MRC-5 | AD169 | <0.6 µM
Nc1ccn(C[C@@H](CO)OCP(=O)(O)O)c(=O)n1 | HFF | Toledo | 1.9 µM
Cc1cn([C@@H]2O[C@H](CO)[C@@H](O)[C@@H]2O)c(=S)nc1N | MRC-5 | 93-1R | >264.9 µM
Nc1ccn(C[C@@H](CO)OCP(=O)(O)O)c(=O)n1 |  | 1117 3-1-2 (CDV-resistant) | 2.27 µM
O=C(NCCc1ccccc1)C1=Cc2ccncc2CC1 | HFF | 4760RECPOLA1-1-1 | 6.8 µM
OC[C@@H]1O[C@H](n2c(Br)nc3cc(Cl)c(Cl)cc32)[C@@H](O)[C@H]1O | MRC-5 | AD169 | 1.3 µM
CCc1cn([C@H]2C[C@H](O)[C@@H](CO)O2)c(=S)[nH]c1=O | MRC-5 | 93-1R | >277.6 µM
O=C(NCc1ccc(Cl)cc1)c1c[nH]c2c(F)cccc2c1=O |  | GDGrP53 | 3.1 µM
Nc1ccn(C[C@@H](CO)OCP(=O)(O)O)c(=O)n1 | MRC-5 | Towne (ganciclovir- foscarnet-susceptible) | 0.58 µM
OC[C@H]1O[C@@H](n2c(Br)nc3cc(Cl)c(Cl)cc32)[C@H](O)[C@@H]1O | HFF | TOWNE | 1.2 µM
Nc1nc2c(ncn2COC(CO)CO)c(=O)[nH]1 |  | VR6200 (ganciclovir-susceptible) | 3.3 µM
CC(O)c1cn([C@@H]2O[C@H](CO)[C@@H](O)[C@@H]2O)c(=S)nc1N | MRC-5 | AD169 | >244.8 µM
O=C(NCc1ccc(Cl)cc1)c1c[nH]c2ccc(CCCO)cc2c1=O |  | DAVIS | 0.3 µM
CCCCCCCCCCCCCCCCOP(=O)(O)CO[C@H](CO)Cn1ccc(N)nc1=O | HFF | AD169 | 0.005 µM
CN(C)c1cccc2c(S(=O)(=O)Nc3ccc(NC(=O)C(C)(C)CO)cc3)cccc12 |  | Isolate HE | 0.89 µM
O=c1[nH]c(=S)n([C@@H]2O[C@H](CO)[C@@H](O)[C@@H]2O)cc1CCO | MRC-5 | 93-1R | >213 µM
Nc1nc2c(ncn2COC(CO)CO)c(=O)[nH]1 |  | Recombinant C4 (D341E) | 2.5 µM
Nc1nc(=S)n([C@@H]2O[C@H](CO)[C@@H](O)[C@@H]2O)cc1/C=C/c1ccccc1 | MRC-5 | AD169 | >213 µM
O=C(O)P(=O)(O)O | MRC-5 | PC92 (ganciclovir- foscarnet-susceptible) | 114 µM
CN(C)c1cccc2c(S(=O)(=O)Nc3ccc(NC(=O)C(C)(C)CO)cc3)cccc12 | HFF | C4 (BDCRB-resistant) | 2.1 µM

7 of the rows above, restated:

structure,cells,strain or isolate,value
Nc1nc2c(ncn2COC(CO)CO)c(=O)[nH]1,HFF,759RD100 (drug-resistant),113 µM
CCCCCCCCCCCCCCCCCCOC[C@H](COP(=O)(O)CO[C@H](CO)Cn1ccc(N)nc1=O)OCc1ccccc1,HFF,VR4760 (foscarnet-resistant),0.001 µM
OC[C@H]1O[C@@H](n2c(Br)nc3cc(Cl)c(Cl)cc32)[C@H](O)[C@@H]1O,HFF,TOWNE,1.2 µM
OC[C@H]1O[C@@H](n2c(Br)nc3cc(Cl)c(Cl)cc32)[C@H](O)[C@@H]1O,HFF,R56 (BDCRB-resistant),17 µM
Nc1nc2c(ncn2/C=C2/CC2(CO)CO)c(=O)[nH]1,HFF,C9209 1-4-4 ganciclovir- and foscarnet-resistant,1.5 µM
OC[C@H]1O[C@@H](n2c(Br)nc3cc(Cl)c(Cl)cc32)[C@H](O)[C@@H]1O,MRC-5,AD169,<0.6 µM
CC(C)Nc1nc2cc(Cl)c(Cl)cc2n1[C@H]1O[C@@H](CO)[C@H](O)[C@@H]1O,MRC-5,C8303,0.54 µM